Results of unrelated studies side by side (data: NIAID ChemDB).

Common to all: toxicity to cultured cells; cell line: HepG2; read-out: CC50

An empty or dashed field is not shown.

compound	method	result
Cc1cc(NC(=O)c2c(C(C)C)c(C(=O)C(=O)N[C@H](C)C(F)(F)F)n(C)c2C)ccc1F	MTT	>30 µM
COC(=O)CCCC1=NCCc2cc(OC)c(OC)cc21		>20 µM
COc1cccc(CNCCCNc2ccnc3cc(-c4ccc(C(C)(C)C)cc4)ccc23)c1O	fluorescence	0.69 µM
CC(C)N(Cc1cccc(OCCCCCC(=O)OC(=O)O)c1)C(=O)c1ccc(-c2cccc(O)c2)cc1		>20 µM
Cc1cc(NC(=O)c2c(C3CC3)c(C(=O)C(=O)N[C@H](C)C(F)(F)F)n(C)c2C)ccc1F	MTT	>30 µM
CC(C)N(Cc1cccc(OCCCCCC(=O)OC(=O)O)c1)C(=O)c1ccccc1		>20 µM
COc1cccc(Oc2ccc3c(NCCCNCc4cccc(OC)c4O)ccnc3c2)c1	fluorescence	5.3 µM
CNC(=O)c1ccc(-n2c(NC(C)C)nc3c(c2=O)C[C@@H](C)N(C(=O)c2ccc(Br)c(C(F)(F)F)c2)C3)cc1	luminescence	>50 µM
Cc1cc(NC(=O)c2c(C)c(C(=O)C(=O)NC3CCC(O)CC3)n(C)c2-c2ccncc2)ccc1F	MTT	>30 µM
C=CCCC1=NCC(OC(C)=O)c2cc(OC)c(OC)cc21		>20 µM
Cc1cc(NC(=O)c2c(C)c(C(=O)C(=O)N[C@H]3[C@H]4CC[C@H](C4)[C@H]3CO)n(C)c2C)ccc1F	MTT	>30 µM
CNC(=O)c1cc(-n2c(NC(C)C)nc3c(c2=O)C[C@@H](C)N(C(=O)c2ccc(Cl)c(C(F)(F)F)c2Cl)C3)nn1C	luminescence	>50 µM
COc1ccc(F)cc1CNCCCNc1ccnc2cc(Cc3ccccc3)ccc12	fluorescence	7.99 µM
Cc1cc(NC(=O)c2c(C)c(C(=O)C(=O)NC3(C)CCC(O)CC3)n(C)c2C)cc(C)c1F	MTT	>30 µM
CCCN(Cc1cccc(OCCCCCC(=O)OCC)c1)C(=O)c1ccc(Br)cc1		>20 µM
Cc1c(C(=O)Nc2ccc(F)c(C(=O)O)c2)c(C)n(C)c1C(=O)C(=O)NC(C)(C)C	MTT	>30 µM
COc1cccc(CNCCCNc2ccnc3cc(Oc4ccccc4)ccc23)c1O	fluorescence	6.8 µM
CC(C)(C)OC(=O)NCC(OC(=O)C(O)CO)c1ccc2c(c1)OCO2		<7.5 µM
CNC(=O)[C@H]1CCC[C@H](n2c(NC(C)C)nc3c(c2=O)C[C@@H](C)N(C(=O)c2ccc(Cl)c(C(F)(F)F)c2)C3)C1	luminescence	29.6 µM
COc1ccc(F)cc1CNCCCNc1ccnc2cc(Oc3ccc(F)cc3)ccc12	fluorescence	6.6 µM
CCN(C(=O)C(=O)c1c(C)c(C(=O)Nc2ccc(F)c(C)c2)c(C)n1C)C(C)C	MTT	>30 µM
CCOC(=O)CCCCCOc1cccc(CN(C(=O)c2ccc(-c3cccc(C(C)=O)c3)cc2)C(C)C)c1		>20 µM
CNC(=O)c1ccc(-n2c(NC(C)C)nc3c(c2=O)C[C@@H](C)N(C(=O)c2ccc(Br)c(Cl)c2)C3)cc1	luminescence	>50 µM
CCC1(NC(=O)C(=O)c2c(C)c(C(=O)Nc3ccc(F)c(C)c3)c(C)n2C)CCN(c2nccs2)CC1	MTT	5–30 µM
O=C(O)c1cc(-c2cccs2)nc2ccccc12		>20 µM

Repeating the final 3 entries:

{"compound": "CNC(=O)c1ccc(-n2c(NC(C)C)nc3c(c2=O)C[C@@H](C)N(C(=O)c2ccc(Br)c(Cl)c2)C3)cc1", "method": "luminescence", "result": ">50 µM"}
{"compound": "CCC1(NC(=O)C(=O)c2c(C)c(C(=O)Nc3ccc(F)c(C)c3)c(C)n2C)CCN(c2nccs2)CC1", "method": "MTT", "result": "5–30 µM"}
{"compound": "O=C(O)c1cc(-c2cccs2)nc2ccccc12", "result": ">20 µM"}

Conditions beyond the fields shown may differ between rows. a–b is a range or a potency band. CCn is the concentration with n% toxicity to the cells.